Anti-infective test results gathered from many reports (values: NIAID ChemDB through PubChem).

Shared fields: growth or infection tests; species: HIV-1; method: p24; measure: EC95

ECn: concentration that inhibits the pathogen or its effect by n%.

| smiles | changes | strain | cells | value |
|---|---|---|---|---|
| CC(=O)Nc1ccc(Cl)c(NC(=O)CSc2nnnn2-c2c(C)cc(C)cc2C)c1 |  |  | MT-4 | <10 µM |
| CCCc1nnc(C[C@H](C[C@H](O)CN2CCN(C(C)(C)c3ncc(-c4ccc(F)cc4)o3)C[C@H]2C(=O)NCC(F)(F)F)C(=O)N[C@H]2c3ccccc3OC[C@H]2O)o1 | PR-L10I N37S R41K M46I I54V I62V L63P A71V V77I V82A L90M I93L | Q-60 Clinical isolate | MT-4 | ≤0.008 µM |
| CCc1cc(NCc2nc3c(C)ccc(C)c3o2)c(=O)[nH]c1C |  | rA17 | MT-4 | 100 µM |
| COc1ccccc1NC(=O)CSc1nnnn1-c1cccc2ccccc12 |  |  | MT-4 | <10 µM |
| Cc1nnc(C[C@H](C[C@H](O)CN2CCN(C(C)(C)c3ncc(-c4ccc(Cl)cc4)o3)C[C@H]2C(=O)NCC(F)(F)F)C(=O)N[C@H]2c3ccccc3OC[C@H]2O)o1 | PR-L10I M36I N37D M46I R57K L63P A71V G73S I84V L90M I93L | V-18 Clinical isolate | MT-4 | 0.063 µM |
| CCc1cc(NCc2nc3c(C)ccc(C)c3o2)c(=O)[nH]c1C |  | RUTZ | MT-4 | 0.05 µM |
| O=C(CSc1nnnn1-c1ccccc1Cl)Nc1ccccc1Cl |  |  | MT-4 | <10 µM |
| COc1cncc(-c2cnc(C(C)(C)N3CCN(C[C@@H](O)C[C@@H](Cc4nnc(-c5ccccc5)o4)C(=O)N[C@H]4c5ccccc5OC[C@H]4O)[C@H](C(=O)NCC(F)(F)F)C3)o2)c1 | PR-L10I M46I I54V Q58E L63P I64V V77I V82F I84V L90M I93L | K-60 Clinical isolate | MT-4 | 0.25 µM |
| O=C1N(Cc2ccc(CO)cc2)[C@H](Cc2ccccc2)[C@H](O)[C@@H](O)[C@@H](Cc2ccccc2)N1Cc1ccc(CO)cc1 | PR-L10R M46I V82T | NL4-3 | MT-4 | 0.2 µM |
| COc1ccc(NC(=O)CSc2nnnn2-c2c(C)cc(C)cc2C)c(C)c1 |  |  | MT-4 | <10 µM |
| CCc1cc(NCc2nc3c(Cl)ccc(Cl)c3o2)c(=O)[nH]c1C |  | IIIB | H9 | 0.1 µM |
| Cc1cn([C@H]2C[C@H](N=[N+]=[N-])[C@@H](CO)O2)c(=O)[nH]c1=O |  | IIIB | MT-4 | 0.025 µM |
| CCCc1nnc(C[C@H](C[C@H](O)CN2CCN(C(C)(C)c3ncc(-c4ccc(Cl)cc4)o3)C[C@H]2C(=O)NCC(F)(F)F)C(=O)N[C@H]2c3ccccc3OC[C@H]2O)o1 | PR-L10I M36I N37D M46I R57K L63P A71V G73S I84V L90M I93L | V-18 Clinical isolate | MT-4 | 0.063 µM |
| CC(C)CN(C[C@@H](O)[C@H](Cc1ccccc1)NC(=O)[C@H](CC(N)=O)NC(=O)c1ccc2ccccc2n1)C(=O)NC(C)(C)C | PR-I84V | NL4-3 | MT-4 | 0.4 µM |
| Cc1nnc(C[C@H](C[C@H](O)CN2CCN(C(C)(C)c3ncc(-c4ccc(F)cc4)o3)C[C@H]2C(=O)NCC(F)(F)F)C(=O)N[C@H]2c3ccccc3OC[C@H]2O)o1 | PR-L10I M36I N37D M46I R57K L63P A71V G73S I84V L90M I93L | V-18 Clinical isolate | MT-4 | 0.063 µM |
| Cc1ccnc2c1NC(=O)c1cccnc1N2C1CC1 |  | rHXB2 | MT-4 | 0.1 µM |

A second listing of 2 rows from above:

| smiles | changes | strain | cells | value |
|---|---|---|---|---|
| CCCc1nnc(C[C@H](C[C@H](O)CN2CCN(C(C)(C)c3ncc(-c4ccc(F)cc4)o3)C[C@H]2C(=O)NCC(F)(F)F)C(=O)N[C@H]2c3ccccc3OC[C@H]2O)o1 | PR-L10I N37S R41K M46I I54V I62V L63P A71V V77I V82A L90M I93L | Q-60 Clinical isolate | MT-4 | ≤0.008 µM |
| Cc1ccnc2c1NC(=O)c1cccnc1N2C1CC1 |  | rHXB2 | MT-4 | 0.1 µM |

Conditions beyond the fields shown may differ between rows. An empty or dashed field is not shown.